In the experiment the target is Liver carboxylesterase (Sus scrofa, UniProt Q29550). The experiment can be described thus: Inhibition of pig liver carboxylesterase by Lineweaver-Burke analysis.

Protein sequences, listed by entry. Tags and fused reporters are not part of them. Residues count along the entry.
UniProt Q29550, 19-566 limits assumed: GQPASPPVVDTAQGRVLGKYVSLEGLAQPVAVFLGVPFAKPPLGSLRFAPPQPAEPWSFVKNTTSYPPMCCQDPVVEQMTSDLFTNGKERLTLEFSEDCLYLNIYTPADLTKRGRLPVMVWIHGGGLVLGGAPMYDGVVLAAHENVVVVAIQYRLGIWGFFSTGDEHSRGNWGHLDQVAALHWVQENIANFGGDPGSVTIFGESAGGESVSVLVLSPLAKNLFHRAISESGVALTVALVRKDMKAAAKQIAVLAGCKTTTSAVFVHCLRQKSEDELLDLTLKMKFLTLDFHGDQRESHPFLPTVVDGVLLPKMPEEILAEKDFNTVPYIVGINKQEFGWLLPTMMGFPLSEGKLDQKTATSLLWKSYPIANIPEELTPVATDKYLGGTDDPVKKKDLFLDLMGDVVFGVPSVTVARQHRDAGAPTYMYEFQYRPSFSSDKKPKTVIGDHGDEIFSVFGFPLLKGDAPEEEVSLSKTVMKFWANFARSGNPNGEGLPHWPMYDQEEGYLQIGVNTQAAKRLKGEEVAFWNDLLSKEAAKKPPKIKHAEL

pKi: −log10 of the molar value.

`CCCCOP(=O)(OCCCC)OC(c1ccccc1)C(F)(F)F` (stereo not drawn) showed a negative-log Ki (pKi) of 6.81.

In the case of `COP(=O)(OC)OC(c1ccccc1)C(F)(F)F` (stereo not drawn), the negative-log Ki (pKi) was 5.18.

`CCOP(=O)(OCC)OC(c1ccccc1)C(F)(F)F` (stereo not drawn) gave a pKi of 5.48.

The values are drawn from ChEMBL document CHEMBL1155211, “Synthesis of organophosphates with fluorine-containing leaving groups as serine esterase inhibitors with potential for Alzheimer disease therapeutics” (2009).
